Experimental data as given in patent publication US6774235B2, “Trisubstituted 1,3,5-triazine derivatives” (Janssen Pharmaceutica N.V., priority 1998, dated 2004).

Test system: HIV-1 (wildtype IIIB)
Format: cell-based
Settings: selectivity index, ratio of CC50 to IC50
Procedure: A rapid, sensitive and automated assay procedure was used for the in vitro evaluation of anti-HIV agents. An HIV-1 (wildtype IIIB) transformed T4-cell line, MT-4, which was previously shown (Koyanagi et al., Int. J Cancer, 36, 445-451, 1985) to be highly susceptible to and permissive for HIV infection, served as the target cell line. Inhibition of the HIV-induced cytopathic effect was used as the end point. […] The percent protection achieved by the compound in HIV-infected cells was calculated by the following formula: [formula]
whereby (ODT)HIV is the optical density measured with a given concentration of the test compound in HIV-infected cells; (ODC)HIV is the optical density measured for the control untreated HIV-infected cells; (ODC)MOCK is the optical density measured for the control untreated mock-infected cells; all optical density values were determined at 540 nm. […] The ratio of CC50 to IC50 was defined as the selectivity index (SI).

Structure (SMILES)	SI
N#Cc1ccc(Nc2nc(N)nc(Oc3c(Cl)cccc3Cl)n2)cc1 [Compound 1]	>6451
Cc1ccc(C)c(Oc2nc(N)nc(Nc3ccc(C#N)cc3)n2)c1 [Compound 2, 4-[[4-amino-6-(2,5-dimethylphenoxy)-1,3,5-triazin-2-yl]amino]benzonitrile]	10750
N#Cc1ccc(Nc2nc(NO)nc(Nc3c(Cl)cccc3Cl)n2)cc1 [Compound 4, 4-[[[6-(2,6-dichlorophenylamino)-4-(hydroxylamino)]-1,3,5-triazin-2-yl]amino]-benzonitrile]	4187
Cc1cccc(C)c1Nc1nc(NO)nc(Nc2ccc(C#N)cc2)n1.Cl [Compound 5]	3458
Cc1cccc(Cl)c1Nc1nc(N)nc(Nc2ccc(C#N)cc2)n1 [Compound 7, 4-[[4-amino-6-[(2-chloro-6-methylphenyl)amino]-1,3,5-triazin-2-yl]amino]benzonitrile]	10187
Cc1cccc(C(C)C)c1Nc1nc(N)nc(Nc2ccc(C#N)cc2)n1 [Compound 8]	56
N#Cc1ccc(Nc2nc(N)nc(Nc3c(Cl)cccc3Cl)n2)cc1 [Compound 10]	2022
Cc1cc(C)c(Nc2nc(NO)nc(Nc3ccc(C#N)cc3)n2)c(C)c1 [Compound 11, 4-[[4-(hydroxyamino)-6-[(2,4,6-trimethylphenyl)amino]-1,3,5-triazin-2-yl]amino]-benzonitrile]	4480
CCc1cccc(CC)c1Nc1nc(N)nc(Nc2ccc(C#N)cc2)n1 [Compound 12]	1449
CC(=O)c1ccc(C)cc1Nc1nc(N)nc(Nc2ccc(C#N)cc2)n1 [Compound 13]	>386
Cc1cc(C)c(Nc2nc(N)nc(Nc3ccc(C#N)cc3)n2)c(C)c1Br [Compound 15]	498
CCc1cccc(C)c1Nc1nc(N)nc(Nc2ccc(C#N)cc2)n1 [Compound 16, 4-[[4-amino-6-[(2-ethyl-6-methylphenyl)amino]-1,3,5-triazin-2-yl]amino]benzonitrile]	1372
N#Cc1ccc(Nc2nc(N)nc(Nc3c(F)cc(F)cc3Br)n2)cc1 [Compound 17]	16311
N#Cc1ccc(Nc2nc(N)nc(Nc3c(Cl)cc(Cl)cc3Cl)n2)cc1 [Compound 18]	6033
N#Cc1ccc(Nc2nc(N)nc(Sc3c(Cl)cccc3Cl)n2)cc1 [Compound 19, 4-[[4-amino-6-[(2,6-dichlorophenyl)thio]-1,3,5-triazin-2-yl]amino]benzonitrile]	11285
N#Cc1ccc(Nc2nc(NO)nc(Sc3c(Cl)cccc3Cl)n2)cc1 [Compound 20]	3726
N#Cc1ccc(Nc2nc(N)nc(NNc3c(Cl)cc(Cl)cc3Cl)n2)cc1 [Compound 21]	27789
N#Cc1ccc(Nc2nc(N)nc(NNc3c(Cl)cccc3Cl)n2)cc1 [Compound 22]	>33333
N#Cc1ccc(Nc2nc(NO)nc(Nc3c(Cl)cc(Cl)cc3Cl)n2)cc1 [Compound 23, 4-[[4-(hydroxyamino)-6-[(2,4,6-trichlorophenyl)amino]-1,3,5-triazin-2-yl]amino]-benzonitrile]	7614
Cc1ccc(Cl)c(C)c1Nc1nc(N)nc(Nc2ccc(C#N)cc2)n1 [Compound 28]	9106
N#Cc1ccc(Nc2nc(N)nc(Oc3c(Cl)cc(Cl)cc3Cl)n2)cc1 [Compound 30]	26488

Structure (SMILES)	SI
Cc1ccc(Cl)c(C)c1Nc1nc(NO)nc(Nc2ccc(C#N)cc2)n1 [Compound 31]	1980
Cc1cc(Br)cc(Cl)c1Oc1nc(N)nc(Nc2ccc(C#N)cc2)n1 [Compound 33, 4-[[4-amino-6-(4-bromo-2-chloro-6-methylphenoxy)-1,3,5-triazin-2-yl]amino]benzonitrile]	>4761
Cc1cc(Cl)cc(Cl)c1Oc1nc(N)nc(Nc2ccc(C#N)cc2)n1 [Compound 34]	3658
CC(=O)c1cc(C)c(Oc2nc(N)nc(Nc3ccc(C#N)cc3)n2)c(C)c1 [Compound 35, 4-[[4-(4-acetyl-2,6-dimethylphenoxy)-6-amino-1,3,5-triazin-2-yl]amino]benzonitrile]	24712
N#Cc1ccc(Nc2nc(N)nc(Oc3ccc(Cl)cc3Cl)n2)cc1 [Compound 38]	>14084
CC(=O)c1cc(Cl)cc(Cl)c1Oc1nc(N)nc(Nc2ccc(C#N)cc2)n1 [Compound 39]	1
N#Cc1ccc(Nc2nc(N)nc(Oc3c(Br)cc(Br)cc3Br)n2)cc1 [Compound 40, 4-[[4-amino-6-(2,4,6-tribromophenoxy)-1,3,5-triazin-2-yl]amino]benzonitrile]	>1851
Cc1cc([N+](=O)[O-])cc(C)c1Oc1nc(N)nc(Nc2ccc(C#N)cc2)n1 [Compound 41, 4-[[4-amino-6-(4-nitro-2,6-dimethylphenoxy)-1,3,5-triazin-2-yl]amino]benzonitrile]	6102
N#Cc1ccc(Nc2nc(N)nc(Oc3c(Cl)c(Cl)c(Cl)c(Cl)c3Cl)n2)cc1 [Compound 42]	>303
N#Cc1ccc(Nc2nc(N)nc(Oc3c(Cl)ccc(Cl)c3Cl)n2)cc1 [Compound 43]	4668
N#Cc1ccc(Nc2nc(N)nc(Oc3c(F)cc(F)cc3F)n2)cc1 [Compound 44]	>19607
N#Cc1ccc(Nc2nc(N)nc(Oc3c(Cl)cc(F)cc3Cl)n2)cc1 [Compound 45]	7258
COc1cccc(OC)c1Oc1nc(N)nc(Nc2ccc(C#N)cc2)n1 [Compound 46]	>3205
COc1cc(C#N)ccc1Oc1nc(N)nc(Nc2ccc(C#N)cc2)n1 [Compound 47]	>1340
Cc1c(Cl)c(C)c(Br)c(Oc2nc(N)nc(Nc3ccc(C#N)cc3)n2)c1Br [Compound 48]	456
CC(=O)c1cc(F)cc(F)c1Oc1nc(N)nc(Nc2ccc(C#N)cc2)n1 [Compound 49]	>1308
Cc1c(Br)c(C)c(Br)c(Oc2nc(N)nc(Nc3ccc(C#N)cc3)n2)c1Br [Compound 50]	139
Cc1cc(Cl)c(C)c(C)c1Oc1nc(N)nc(Nc2ccc(C#N)cc2)n1 [Compound 52]	639
Cc1c(C)c(Oc2nc(N)nc(Nc3ccc(C#N)cc3)n2)c(Cl)c(C)c1Cl [Compound 53]	142
N#Cc1ccc(Nc2nc(N)nc(Sc3ccc(Cl)cc3Cl)n2)cc1 [Compound 54, 4-[[4-amino-6-[(2,4-dichlorophenyl)thio]-1,3,5-triazin-2-yl]amino]benzonitrile]	13349
N#Cc1ccc(Nc2nc(N)nc(Sc3ccc(F)cc3Cl)n2)cc1 [Compound 55]	>27777

Structure (SMILES)	SI
N#Cc1ccc(Nc2nc(N)nc(Sc3cc(Cl)c(Cl)cc3Cl)n2)cc1 [Compound 56]	13059
N#Cc1ccc(Nc2nc(N)nc(Sc3ccc(F)cc3F)n2)cc1 [Compound 57]	>6711
Cc1cc(C)c(Sc2nc(N)nc(Nc3ccc(C#N)cc3)n2)c(C)c1 [Compound 58]	16244
Cc1ccc(Sc2nc(N)nc(Nc3ccc(C#N)cc3)n2)c(C)c1 [Compound 59]	26975
Cc1cc(I)cc(C)c1Oc1nc(N)nc(Nc2ccc(C#N)cc2)n1 [Compound 60]	15172
Cc1cc(C)c(Nc2nc(N)nc(Nc3ccc(C#N)cc3)n2)c(C)c1N [Compound 61]	20549
Cc1ccc(Oc2nc(N)nc(Nc3ccc(C#N)cc3)n2)c(C)c1 [Compound 62]	19110
Cc1cc(Br)cc(Cl)c1Nc1nc(N)nc(Nc2ccc(C#N)cc2)n1 [Compound 63, 4-[[4-amino-6-[(4-bromo-2-chloro-6-methylphenyl)amino]-1,3,5-triazin-2-yl]amino]-benzonitrile]	16561
CCc1cc(Br)cc(CC)c1Nc1nc(N)nc(Nc2ccc(C#N)cc2)n1 [Compound 64]	3393
Cc1cc(C)c(Nc2nc(N)nc(Nc3ccc(C#N)cc3)n2)c(Cl)c1 [Compound 65, 4-[[4-amino-6-[(2-chloro-4,6-dimethylphenyl)amino]-1,3,5-triazin-2-yl]amino]-benzonitrile]	80824
Cc1cc(Nc2nc(N)nc(Nc3ccc(C#N)cc3)n2)c(Cl)cc1F [Compound 66]	>1037
N#Cc1ccc(Nc2nc(N)nc(Nc3c(F)c(F)c(F)c(F)c3F)n2)cc1 [Compound 67]	412
COc1cc(OC)c(Nc2nc(N)nc(Nc3ccc(C#N)cc3)n2)c(OC)c1 [Compound 68]	4173
Cc1cc(C)c(N=Nc2nc(N)nc(Nc3ccc(C#N)cc3)n2)c(C)c1 [Compound 69, 4-[[4-amino-6-[(2,4,6-trimethylphenyl)azo]-1,3,5-triazin-2-yl]aamino]benzonitrile]	>1547
N#Cc1ccc(Nc2nc(N)nc(Nc3c(Cl)cc(C(F)(F)F)cc3Cl)n2)cc1 [Compound 70]	4471
N#Cc1ccc(Nc2nc(N)nc(Nc3c(Cl)cc(Cl)cc3C(F)(F)F)n2)cc1 [Compound 71, 4-[[4-amino-6-[[2,4-dichloro-6-(trifluoromethyl)phenyl]amino]-1,3,5-triazin-2-yl]-amino]benzonitrile]	860
N#Cc1ccc(Nc2nc(N)nc(Nc3c(Br)cc(Br)cc3Br)n2)cc1 [Compound 72]	3259
Cc1cc(Br)c(Nc2nc(Nc3ccc(C#N)cc3)nc(Nc3ccc(C#N)cc3)n2)c(Br)c1 [Compound 74, N,-[6-[(2,6-dibromo-4-methylphenyl)amino]-1,3,5-triazine-2,4-diyl]bis[4-amino-benzonitrile]]	37
CC(C)c1cc(Br)c(Nc2nc(Nc3ccc(C#N)cc3)nc(Nc3ccc(C#N)cc3)n2)c(Br)c1 [Compound 75]	100
CC(C)c1cc(Br)c(Nc2nc(N)nc(Nc3ccc(C#N)cc3)n2)c(Br)c1 [Compound 77, 4-[[4-amino-6-[[2,6-dibromo-4-(1-methylethyl)phenyl]amino]-1,3,5-triazin-2-yl]-amino]benzonitrile]	17431
